Anti-infective test results gathered from many reports (values: NIAID ChemDB through PubChem).

All rows: tests in culture; agent: HIV-1; method: cytopathic effect / trypan blue; read-out: EC50

ECn is the concentration giving n% inhibition of infection, replication or growth.

| SMILES | cell line | strain | value |
|---|---|---|---|
| COC(=O)CCCCCCNP(=O)(OC[C@@H]1C=C[C@H](n2cc(C)c(=O)[nH]c2=O)O1)Oc1ccccc1 | CEM + CEM/0 | IIIB | 50 µM |
| NC[C@H]1O[C@@H](n2cnc3c(N)ncnc32)C[C@@H]1O | MT-4 | IIIB | >500 µg/mL |
| COC(=O)Cn1c(=O)c(C)cn([C@H]2C=C[C@@H](CO[Si](C)(C)C(C)(C)C)O2)c1=O | MT-4 | IIIB | >10 µM |
| NC1=CS(=O)(=O)OC12[C@@H](CO)O[C@@H](n1ccc(=O)[nH]c1=O)[C@@H]2O | MT-4 | IIIB | >100 µg/mL |
| O=c1[nH]c(=O)n([C@H]2C=C[C@@H](CO)O2)cc1Cl | MT-4 | IIIB | >20 µM |
| NC[C@H]1O[C@@H](n2cnc3c(N)ncnc32)C[C@H]1N | MT-4 | IIIB | >500 µg/mL |
| Nc1ncnc2c1ccn2[C@H]1C=C[C@@H](CO)C1 | MT-4 | IIIB | >200 µM |
| COC(=O)CNP(=O)(OC[C@@H]1C=C[C@H](n2cc(C)c(=O)[nH]c2=O)O1)Oc1ccccc1 | CEM + CEM/0 | IIIB | 6 µM |
| Cc1cn([C@H]2C[C@H](N=[N+]=[N-])[C@@H]([C@@H](C)O)O2)c(=O)[nH]c1=O | MT-4 | IIIB | >200 µg/mL |
| Nc1ncnc2c1ncn2[C@@H]1O[C@H](CO)C[C@@H]1N | MT-4 | IIIB | >500 µg/mL |
| Nc1nc2c(ncn2[C@H]2CC[C@@H](CO)O2)c(=O)[nH]1 | MT-4 | IIIB Laboratory strain | 7.6 µM |
| Nc1ccn([C@H]2CC[C@@H](CO)O2)c(=O)n1 | MT-4 | IIIB | 0.28 µM |
| COC(=O)C(C)(C)NP(=O)(OC[C@@H]1C=C[C@H](n2ccc3c(N)ncnc32)C1)Oc1ccccc1 | MT-4 | IIIB | >490 µM |
| CC(C)(C)[Si](C)(C)OC[C@@H]1CC[C@H](n2cnc3c(=O)n(CC(=O)O)cnc32)O1 | MT-4 | IIIB | >200 µM |
| Nc1ncnc2c1ncn2[C@H]1C=C[C@@H](CO)O1 | MT-4 | IIIB | 41 µM |
| COC(=O)C(C)(C)NP(=O)(OC[C@H]1C=C[C@@H](n2ccc3c(N)ncnc32)C1)Oc1ccccc1 | MT-4 | IIIB | 0.3 µM |
| CC(C)(C)[Si](C)(C)O[C@H]1[C@H](n2ccc(=O)[nH]c2=O)O[C@H](CO)C1(O)C(N=[N+]=[N-])C(N)=O | MT-4 | IIIB | ≥250 µM |
| Nc1nc(N)c2ncn([C@H]3CC[C@@H](CO)O3)c2n1 | MT-4 | IIIB Laboratory strain | 3.6 µM |
| Nc1ncnc2c1ccn2[C@@H]1C=C[C@H](CO)C1 | MT-4 | IIIB | 280 µM |
| CC(C)(C)[Si](C)(C)OC[C@H]1O[C@@H](n2cnc3c(=O)n(CC(=O)O)cnc32)[C@H](O)[C@@H]1O[Si](C)(C)C(C)(C)C | MT-4 | IIIB | 34 µM |
| Cc1cn([C@H]2C=C[C@@H](CO)O2)c(=O)[nH]c1=O | CEM + CEM/0 | IIIB | 0.36 µM |
| CC(C)(C)[Si](C)(C)OC[C@H]1O[C@@H](n2ccc(=O)[nH]c2=O)[C@H](O[Si](C)(C)C(C)(C)C)[C@@]12O[C@H]2C(=O)NN | MT-4 | IIIB | >2 µM |
| CNOC(=O)Cn1c(=O)c(C)cn([C@@H]2O[C@H](CO[Si](C)(C)C(C)(C)C)[C@@H](O)[C@H]2O[Si](C)(C)C(C)(C)C)c1=O | MT-4 | IIIB | >10 µM |
| COC(=O)[C@@H]1O[C@]12[C@@H](CO[Si](C)(C)C(C)(C)C)O[C@@H](n1ccc(=O)[nH]c1=O)[C@@H]2O[Si](C)(C)C(C)(C)C | MT-4 | IIIB | >10 µM |
| Cc1cn([C@H]2C[C@H](N=[N+]=[N-])[C@@H](CCO)O2)c(=O)[nH]c1=O | MT-4 | IIIB | >200 µg/mL |
| COC(=O)[C@H](C)NP(=O)(OC[C@@H]1C=C[C@H](n2cc(C)c(=O)[nH]c2=O)O1)Oc1ccccc1 | CEM + CEM/0 | IIIB | 0.085 µM |
| NC[C@@H]1C[C@H](N)[C@H](n2cnc3c(N)ncnc32)O1 | MT-4 | IIIB | >500 µg/mL |
| CC(C)(C)[Si](C)(C)OC[C@H]1O[C@@H](n2ccc(=O)[nH]c2=O)[C@H](O[Si](C)(C)C(C)(C)C)C1(O)[C@H](N=[N+]=[N-])C(N)=O | MT-4 | IIIB | >10 µM |
| Nc1ncnc2c1ncn2[C@H]1C=C[C@@H](CO)O1 | MT-4 | IIIB Laboratory strain | >5 µM |
| NC[C@@H]1C[C@@H](N)[C@H](n2cnc3c(N)ncnc32)O1 | MT-4 | IIIB | >500 µg/mL |
| Cc1cn([C@@H]2O[C@H](CO)C3(OS(=O)(=O)C=C3N)[C@H]2O[Si](C)(C)C(C)(C)C)c(=O)[nH]c1=O | MT-4 | IIIB | >40 µg/mL |
| COC(O)[C@@H]1OC12[C@@H](CO[Si](C)(C)C(C)(C)C)O[C@@H](n1cc(C)c(=O)[nH]c1=O)[C@@H]2O[Si](C)(C)C(C)(C)C | MT-4 | IIIB | >10 µM |
| COC(=O)[C@H](Cc1ccccc1)NP(=O)(OC[C@H]1C=C[C@@H](n2ccc3c(N)ncnc32)C1)Oc1ccccc1 | MT-4 | IIIB | 0.3 µM |
| NC[C@H]1O[C@@H](n2cnc3c(N)ncnc32)C[C@@H]1N | MT-4 | IIIB | >500 µg/mL |

Rows are shuffled and stem from different studies.